This series has as its system Nc1ncnc2c1ncn2[C@@H]1O[C@H](COP(=O)(O)OP(=O)(O)OP(=O)(O)O)[C@@H](O)[C@H]1O. In words: purified protein. As to conditions: pH 8.0; 37.0 °C.

Where “and” joins values, the source holds several entries; their conditions need not be identical. Equal values may be shown once.

The term Km denotes the concentration of substrate that gives half-maximal velocity.

(Mycobacterium tuberculosis H37Rv): the Km is 1100 ± 300 µM and 1300 ± 200 µM.

The values are drawn from paper PMC3084762, “Distinct Properties of Hexameric but Functionally Conserved Mycobacterium tuberculosis Transcription-Repair Coupling Factor” (PLoS ONE, 2011).
